Measurements: publication PMC11026403 (Communications Biology, 2024)

Assays:
[1] = target: A/bottlenose dolphin/Florida/UFTt2203/2022 (H5N1) NA-S246N (Influenza A virus, UniProt Q9Q0U7, S247N)
[2] = tested on: PA endonuclease domain (residues 1-200); conditions: from PA sequence: absence of E23G/K, I38T/F/M/S/L/N, E119D substitutions

Row | SMILES | IC50 ([1]; dolphin H5N1 virus with NA-S246N, MUNANA substrate, four dose-response curves) [nM] | NAI susceptibility classification (WHO guidance) ([1]; fold over A/Denmark/524/2009 (H1N1)pdm09, virus with S246N neuraminidase substitution) | Susceptibility of the virus to the NAI, in words ([1]; in vitro, dolphin H5N1 virus containing NA-S246N) | Susceptibility to PA protein inhibitor, in words [2]
1 | CCC(CC)O[C@@H]1C=C(C(=O)O)C[C@H](N)[C@H]1NC(C)=O [oseltamivir, oseltamivir carboxylate] | 7.51 | reduced inhibition (10–100 fold, reduced inhibition) | reduced susceptibility | 
2 | COC(=O)OCOc1c2n(ccc1=O)N([C@@H]1c3ccccc3SCc3c1ccc(F)c3F)[C@@H]1COCCN1C2=O |  |  |  | susceptible
